We go through one compound from paper PMC6753193, “Targeting the Non-catalytic RVxF Site of Protein Phosphatase-1 With Small Molecules for Ebola Virus Inhibition” (Frontiers in Microbiology, 2019).

By UniProt entry, the sequences of proteins in these tests, tags left out. Residues count along the entry.
UniProt P62136, 7-300 Y70W/L73Y/G274E/A299E limits assumed: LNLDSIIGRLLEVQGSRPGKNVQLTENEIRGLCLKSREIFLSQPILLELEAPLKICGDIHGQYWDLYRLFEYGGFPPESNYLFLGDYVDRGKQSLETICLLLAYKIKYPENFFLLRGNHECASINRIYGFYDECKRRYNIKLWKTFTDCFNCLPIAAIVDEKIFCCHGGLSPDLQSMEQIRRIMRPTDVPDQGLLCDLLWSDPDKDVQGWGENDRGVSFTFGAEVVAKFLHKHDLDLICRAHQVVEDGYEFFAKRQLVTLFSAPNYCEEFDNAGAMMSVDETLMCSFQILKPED

Usually Kd stands for the concentration at which binding is half-saturated.

This test has as its target MUT PP1 (Y70W, L73Y, G274E and A299E) (Homo sapiens, UniProt P62136, A299E/G274E/L73Y/Y70W). The test is described as follows: Surface plasmon resonance, binding to MUT PP1. In general terms: In SPR one partner is held on a chip, and binding of the other changes the refractive index at the surface.

Where the note is “MUT PP1, SPR”, `COc1ccc(C=C2CCc3c2nc2ccccc2c3C(=O)OC(C)C(=O)NC2CC2)cc1OC` (centres unmarked) gave an Rmax of 15.51 RU, a ka of 921.2 M⁻¹ s⁻¹ and a kd of 0.002171 s⁻¹. Where the note is “MUT PP1, SPR, 25°C, 1:1 binding model”, this compound registered a dissociation constant Kd of 2.36 µM. For the same compound, under “from KD values”, the “reduction of binding for mutant PP1 vs WT PP1” value is recorded as 3 fold.
